# Measured values from patent US5519028A, “Antiviral preparations” (priority 1992, dated 1996).
# System: HIV-1
# Conditions: human, pbmc
smiles,measurement,value
CCc1ccc2c3[nH]c4ccccc4c3cc[n+]2c1 [flavopereirine],total-inhibition concentration weaker than cytotoxic concentrations,2-4 times
